Patent publication US20140328795A1, “VIRUCIDAL SMALL MOLECULE AND USES THEREOF” (The Texas A&M University System, priority 2012, published 2014)

Assays:
[1] = tested on: primary HIV-1 isolates; test: HIV-1 infectivity assay in TZM-bl cells (β-galactosidase); format: cell-based; settings: CC50 from human cell lines
[2] = tested on: HIV-1 (NL4.3); test: Drug resistance study

N=C1Sc2ccccc2C2=NCCCN12 [PD, PD 404,182]
selectivity / therapeutic index (CC50/IC50) [1]: > 300
emergence of PD-resistant HIV-1 variants ([2]; TZM-bl cells passaged with 1, 5 and 10 μM PD for 60 days): No PD-resistant variants could be detected
emergence of PD-resistant HIV-1 variants ([2]; freshly activated human PBMCs (2 donors), 12 days (data not shown)): no emergence of viral resistance was observed
